Test results reported in US11918635B2, “Method and platform for detecting immunogenicity of tumor neoantigen” (NeoCura Bio-Medical Technology Co., Ltd, priority 2019, dated 2024).

System: human peripheral blood monocytes (PBMCs)
Assay: ELISPOT platform building experiment (Human IFN-γ Single-Color ELISPOT)
Assay type: cell-based

## Influenza Matrix M1: antigenic peptide fragment of human influenza virus: sequence fragment at positions 58-66 of Influenza Matrix Protein M1; supplier Cellular Technology Limited
  number of spots finally formed in each well of a Petri dish: increases with the increase of the additional amount of the antigenic peptide fragment
